## Share of PSTVd loop 6 variants by leaf site

The measurements come from Wu et al. 2024 (doi:10.1371/journal.ppat.1012142).

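Three N. benthamiana plants were inoculated with the whole mutant pool. Samples came from the inoculated region at 5 days, the leaf margin at 10 and upper systemic leaves at 12.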

PSTVd intermediate strain, loop 6: wild type UGACCGCGAG, pool pattern UNNNCGNNNG; upper and lower strand joined, each 5' to 3', the first 5 letters being the upper strand, closing pairs included.

Numbers give reads per thousand; 0 = not seen among the reads, higher = more abundant. Each site shows the three plants. "Pool" is the share in the plasmid pool used as inoculum, on the same scale. The inoculated region was read from the minus strand, the other sites from the plus strand. The authors trace changes outside the varied positions to PCR and sequencing errors or to mutation in the plant; presence does not show that a variant is infectious alone. For reference, wild type rose from 20.7 per thousand in the pool to 195, 198, 203 (inoculated region), 629, 591, 734 (leaf margin) and 942, 870, 868 (systemic leaves). Samples held 36,220 to 57,551 reads, so the smallest values rest on one or two reads.

UGUACGAUUG (pool 0.431): inoculated region 0.0869 / 0.0719 / 0.129; leaf margin 0 / 0 / 0; systemic leaves 0.0180 / 0 / 0.0410.
GUAUCGUUAG (pool 0.0131): inoculated region 0 / 0 / 0; leaf margin 0 / 0 / 0; systemic leaves 0 / 0 / 0.
UCUUCGAGCG (pool 0.275): inoculated region 0.0695 / 0.0719 / 0.0553; leaf margin 0 / 0.0252 / 0; systemic leaves 0 / 0 / 0.
UUGUCGUUGG (pool 0.601): inoculated region 0.139 / 0.0719 / 0.0738; leaf margin 0 / 0 / 0; systemic leaves 0 / 0 / 0.0410.
UGGACGGCCG (pool 0.0915): inoculated region 0.0869 / 0.108 / 0.0184; leaf margin 0 / 0 / 0.0232; systemic leaves 0 / 0 / 0.
UCCCCGCGAU (pool 0.0131): inoculated region 0.0174 / 0.0898 / 0.129; leaf margin 0.0552 / 0.0252 / 0.0232; systemic leaves 0 / 0 / 0.
UCUUCGUUUG (pool 0.301): inoculated region 0.122 / 0.0719 / 0.0369; leaf margin 0.0552 / 0 / 0; systemic leaves 0 / 0 / 0.
UCGACGUCGG (pool 0.288): inoculated region 0.139 / 0.126 / 0.0553; leaf margin 0 / 0 / 0.0232; systemic leaves 0 / 0 / 0.
UAGUCGGAAG (pool 0.105): inoculated region 0.122 / 0.144 / 0.0553; leaf margin 0.0552 / 0 / 0; systemic leaves 0 / 0 / 0.
UAAACGAAAG (pool 0.170): inoculated region 0.747 / 0.611 / 0.627; leaf margin 0.138 / 0.151 / 0.116; systemic leaves 0 / 0 / 0.0410.
UUCACGUCUG (pool 0.353): inoculated region 0.0869 / 0 / 0.0922; leaf margin 0.0276 / 0 / 0; systemic leaves 0 / 0 / 0.
UCCACGAACG (pool 0.275): inoculated region 0.0348 / 0.180 / 0.0738; leaf margin 0 / 0 / 0; systemic leaves 0 / 0 / 0.
UACGCGGUUG (pool 0.235): inoculated region 0.0695 / 0.0359 / 0.0922; leaf margin 0 / 0 / 0; systemic leaves 0 / 0 / 0.
UCCCCGGUUG (pool 0.458): inoculated region 0.0695 / 0.0180 / 0.0922; leaf margin 0 / 0.0504 / 0.0232; systemic leaves 0 / 0 / 0.
UUCUCGCCCG (pool 0.392): inoculated region 0.0869 / 0.0180 / 0.111; leaf margin 0 / 0 / 0.0232; systemic leaves 0 / 0 / 0.0205.
UUUCCGUCUG (pool 0.222): inoculated region 0.191 / 0.251 / 0.111; leaf margin 0 / 0 / 0; systemic leaves 0 / 0 / 0.
UAUUCGGGCG (pool 0.157): inoculated region 0.938 / 0.557 / 0.443; leaf margin 0.221 / 0.0504 / 0.139; systemic leaves 0 / 0 / 0.
UGCUCGAACG (pool 0.144): inoculated region 0.0521 / 0.108 / 0.129; leaf margin 0 / 0 / 0; systemic leaves 0 / 0 / 0.
UGUUCGUCAG (pool 0.458): inoculated region 0.0869 / 0.108 / 0.0738; leaf margin 0.0276 / 0 / 0; systemic leaves 0 / 0 / 0.0410.
UUUUCGAGGG (pool 0.131): inoculated region 0.104 / 0.0719 / 0.166; leaf margin 0 / 0 / 0; systemic leaves 0 / 0 / 0.
UAUUCGUUCG (pool 0.301): inoculated region 0.122 / 0.0719 / 0.0738; leaf margin 0 / 0 / 0; systemic leaves 0 / 0 / 0.
UCGGCGGAGG (pool 0.261): inoculated region 0.0348 / 0.108 / 0.0553; leaf margin 0 / 0 / 0; systemic leaves 0 / 0 / 0.
UUAUCGCACG (pool 0.288): inoculated region 0.0521 / 0.0719 / 0.166; leaf margin 0 / 0.202 / 0; systemic leaves 0 / 0 / 0.0410.
UCCGCGACCG (pool 0.235): inoculated region 0.139 / 0.0719 / 0.0184; leaf margin 0.0276 / 0 / 0.0232; systemic leaves 0 / 0 / 0.
UGACAGUUAG (pool 0.0131): inoculated region 0 / 0.0180 / 0; leaf margin 0 / 0 / 0; systemic leaves 0 / 0 / 0.
UUUACGCCAG (pool 0.196): inoculated region 0.191 / 0.108 / 0.184; leaf margin 0 / 0 / 0; systemic leaves 0 / 0 / 0.
UUUUCGACAG (pool 0.196): inoculated region 0.0869 / 0.0359 / 0.166; leaf margin 0 / 0 / 0; systemic leaves 0 / 0 / 0.
UUGACGCACG (pool 0.235): inoculated region 0.0348 / 0.126 / 0.0553; leaf margin 0 / 0 / 0; systemic leaves 0 / 0 / 0.
UCACCGCUCG (pool 0.275): inoculated region 0.0869 / 0.0898 / 0.0553; leaf margin 0 / 0 / 0.0928; systemic leaves 0.0359 / 0.0404 / 0.
UGCUCGGAAG (pool 0.105): inoculated region 0.174 / 0.0359 / 0.0553; leaf margin 0 / 0 / 0; systemic leaves 0 / 0 / 0.
UACGCGCGAG (pool 0.144): inoculated region 0.122 / 0.0898 / 0.0922; leaf margin 0.0828 / 0 / 0; systemic leaves 0 / 0 / 0.

A selection of 2 entries from above:

- UCCGCGACCG (pool 0.235) = inoculated region 0.139 / 0.0719 / 0.0184; leaf margin 0.0276 / 0 / 0.0232; systemic leaves 0 / 0 / 0
- UCCACGAACG (pool 0.275) = inoculated region 0.0348 / 0.180 / 0.0738; leaf margin 0 / 0 / 0; systemic leaves 0 / 0 / 0